Results of unrelated studies side by side (data: NIAID ChemDB).

Common to all: whole-cell or culture tests; agent: Varicella zoster virus

Neighbouring rows are from separate reports.

compound,read by,endpoint,strain or isolate,cell line,result
C=Cc1cn([C@@H]2O[C@H](CO)[C@@H](O)[C@@H]2O)c(=S)[nH]c1=O,plaque count,EC50,HOSEN (TK+),MRC-5,>266.3 µM
c1ccn2cc(-c3cncs3)cc2c1,plaque count,EC50,G-31,MRC-5,40–50 µM
Nc1ncnc2c1ncn2[C@H]1C[C@@]12C[C@@H]2CO,plaque count,EC50,-,HFF,>433 µM
Cc1ccccc1CSCc1cnc2c(Br)cc(Br)c(C)n12,plaque count,EC50,YS (TK+),HEL,>5 µg/mL
O=c1[nH]c(=O)n([C@H]2C[C@H](O)[C@@H](CO)O2)cc1/C=C/Br,plaque count,EC50,Batson,HEF,0.0013 µg/mL
Cc1c(Br)cc(Br)c2ncc(CSCc3ccccc3Cl)n12,plaque count,EC50,YS/R (TK-),HEL,>5 µg/mL
COC(=O)C(C)NP(=O)(OC[C@@H]1C/C1=C/n1cc(C)c(=O)[nH]c1=O)Oc1ccccc1,plaque count,EC50,-,HFF,69.3 µM
Cn1cc(C(=O)NCc2ccc(Cl)cc2)c(=O)c2cc(CN3CCOCC3)ccc21,plaque count,EC50,NA varicella isolate,HFF,0.1 µM
Nc1ncc2c(ncn2/C=C2\CC2CO)n1,ELISA,EC50,-,-,>100 µM
CC(C)C[C@H](NC(=O)n1nnc2ccccc21)C(=O)NC(c1ccccc1)c1ccccc1,plaque count,EC50,07/1 (TK-),HEL,>0.64 µg/mL
O=c1[nH]c(=O)n([C@H]2C[C@H](O)[C@@H](CO)O2)cc1/C=C/I,plaque count,EC50,HIRAI,HEF,0.0017 µg/mL
O=C(O)P(=O)(O)O,-,EC50,TK-,HEL,250 µM
OC[C@H]1O[C@@H](c2cc(F)c(F)cc2F)C[C@@H]1O,plaque count,EC50,(TK-)/YS/R,HEL,>200 µM
CC1(C)[C@@H](CO)CC[C@@]1(C)Cn1nnc2c(=O)[nH]cnc21,cytopathic effect,EC50,YS,HEL,>50 µg/mL
Cc1cn(CC[C@H](O)CCO)c(=O)[nH]c1=O,cytopathic effect,EC50,YS/R (TK-),HEL,>400 µg/mL
Nc1ncnc2c1ncn2[C@H]1C[C@]12C[C@H]2CO,plaque count,EC50,-,HFF,245 µM
Nc1ccn(CC[C@H](O)CCO)c(=O)n1,cytopathic effect,EC50,07/1 (TK-),HEL,>400 µg/mL
Nc1cn(/C=C2/C[C@H]2CO)c(=O)[nH]c1=O,plaque count,EC50,-,HFF,3.6 µM
Nc1ncnc2c1ncn2[C@H]1C[C@]12C[C@@H]2CO,plaque count,EC50,-,HFF,>86.5 µM
Nc1ncnc2c1ncn2C[C@@H](CO)OCP(=O)(O)O,cytopathic effect,EC50,OKA (WILD TYPE),HEL,0.046 µM
CCCc1cn([C@H]2C[C@H](O)[C@@H](CO)O2)c(=O)[nH]c1=O,cytopathic effect,EC50,VEX411,HEF,1 µg/mL
Nc1nc2c(ncn2COCCO)c(=O)[nH]1,cytopathic effect,EC50,-,-,0.1 µg/mL
Cc1cc(C)n2cc(-c3ccccc3)cc2c1,plaque count,EC50,G-31,MRC-5,10 µM
CCCCCCCCc1cc2cn([C@H]3C[C@H](O)[C@@H](CO)O3)c(=O)nc2o1,-,EC50,YS,-,0.024 µM
O=c1[nH]c(=O)n([C@H]2C[C@H](O)[C@@H](CO)O2)cc1I,-,EC50,ULF PE 9/84 (TK+),HEL,30–75 µM
COc1ccc(OC)c(-c2cc3ccccn3c2)c1,plaque count,EC50,G-31,MRC-5,>40 µM
Nc1ncnc2c1ncn2[C@H]1C[C@@]12C[C@H]2CO,plaque count,EC50,-,HFF,242 µM
Cc1cc([C@H]2C[C@H](O)[C@@H](CO)O2)c(F)cc1F,plaque count,EC50,TK+/YS,HEL,>200 µM
CC1(C)[C@@H](CO)CC[C@@]1(C)Cn1ccc(=O)[nH]c1=O,cytopathic effect,EC50,OKA,HEL,>50 µg/mL
Nc1nc2c(ncn2/C=C2\CC2(CO)CO)c(=O)[nH]1,plaque count,EC50,ELLEN,HFF,>380 µM
O=C1OC(C(O)Cn2cc(F)c(=O)[nH]c2=O)C(OCc2ccccc2)=C1OCc1ccccc1,-,EC50,TK+,HEL,>50 µg/mL
CC1(C)[C@@H](CO)CC[C@@]1(C)Cn1cnc2c(=O)[nH]cnc21,cytopathic effect,EC50,07/1 (TK-),HEL,>50 µg/mL
Nc1ccn([C@@H]2O[C@H](CO)[C@@H](O)[C@@H]2O)c(=O)n1,-,MIC,-,-,4.4 µg/mL
O=[N+]([O-])c1cc([C@H]2C[C@H](O)[C@@H](CO)O2)c(F)cc1F,plaque count,EC50,(TK-)/YS/R,HEL,>50 µM
C=C1[C@H](CO)[C@@H](O)C[C@@H]1n1cnc2c(=O)[nH]c(N)nc21,plaque count,EC50,-,WI-38,15 µM
CO[C@H](CO)[C@@H](O)CCn1ccc(N)nc1=O,cytopathic effect,EC50,07/1 (TK-),HEL,>400 µg/mL
O=C(O)P(=O)(O)O,cytopathic effect,EC50,Oka penciclovir-resistant/B,HEL,128.5 µM
CCc1ccc2cc(-c3ccccc3)cn2c1,plaque count,EC50,G-31,MRC-5,10 µM
OC[C@H]1O[C@H](c2cc(I)c(F)cc2F)C[C@@H]1O,plaque count,EC50,(TK-)/YS/R,HEL,>200 µM
Nc1nc2c(ncn2COC(CO)CO)c(=O)[nH]1,plaque count,EC50,KMCC,MRC-5,1.2 µg/mL
Nc1nc2c(nnn2CCOCP(=O)(O)O)c(=O)[nH]1,cytopathic effect,EC50,OKA (TK+),HEL,0.4 µg/mL
Nc1nc2c(ncn2CCOCP(=O)(O)O)c(=O)[nH]1,plaque count,EC50,OKA (TK+),HEL,0.001 µg/mL
COC(=O)c1cccn2cc(-c3ccccc3)cc12,plaque count,EC50,G-31,MRC-5,>40 µM
Nc1ncc2ncn(/C=C3/CC3CO)c2n1,ELISA,EC50,-,-,>100 µM
O=c1[nH]c(=O)n([C@H]2C[C@H](O)[C@@H](CO)O2)cc1I,plaque count,EC50,CAQU,HEF,0.37 µg/mL
OC[C@H]1O[C@H](c2ccc(F)cc2F)C[C@@H]1O,plaque count,EC50,(TK-)07/1,HEL,>200 µM
Nc1nc2c(ncn2[C@H]2C[C@]23C[C@H]3CO)c(=O)[nH]1,plaque count,EC50,-,HFF,>399 µM
Nc1nc2c(ncn2COC(CO)CO)c(=O)[nH]1,cytopathic effect,EC50,OKA (WILD TYPE),HEL,1.3 µM
O=C1OC(C(O)Cn2cc(C(F)(F)F)c(=O)[nH]c2=O)C(OCc2ccccc2)=C1OCc1ccccc1,-,EC50,TK+,HEL,>50 µg/mL
Nc1ncnc2nn(C[C@@H](CO)OCP(=O)(O)O)nc12,cytopathic effect,EC50,OKA (TK+),HEL,>100 µg/mL
Nc1cn(C=C2C[C@H]2CO)c(=O)[nH]c1=O,plaque count,EC50,-,HFF,>518 µM
C=Cc1cn([C@H]2C[C@H](OC(=O)C3=CN(C)C=CC3)[C@@H](CO)O2)c(=O)[nH]c1=O,cytopathic effect,EC50,-,HFF,8.5 µM
O=c1[nH]c(=O)n([C@H]2C[C@H](O)[C@@H](CO)O2)cc1/C=C/Br,-,EC50,ULF PE 9/84 (TK+),HEL,0.6–0.9 µM
CN1C=CCC(C(=O)O[C@H]2C[C@H](n3cc(/C=C/I)c(=O)[nH]c3=O)O[C@@H]2CO)=C1,cytopathic effect,EC50,-,HFF,0.12 µM
Nc1ncnc2nn(C[C@@H](CF)OCP(=O)(O)O)nc12,cytopathic effect,EC50,OKA (TK+),HEL,>10 µg/mL
CCOP(=O)(O)COCCn1cnc2c(=O)[nH]c(N)nc21,plaque count,EC50,YS/R (TK-),HEL,0.004 µg/mL
CO[C@H](CO)[C@@H](O)CCn1cc(C)c(=O)[nH]c1=O,cytopathic effect,EC50,07/1 (TK-),HEL,>400 µg/mL
Cn1cc(C(=O)NCc2ccc(Cl)cc2)c(=O)c2cc(CN3CCOCC3)ccc21,plaque count,EC50,-,VERO,0.34 µM
Cc1cccc(CSCc2cnc3c(Br)cc(Br)c(C)n23)c1,plaque count,EC50,OKA (TK+),HEL,4.9 µg/mL
COc1cc(F)c([C@H]2C[C@H](O)[C@@H](CO)O2)cc1[N+](=O)[O-],plaque count,EC50,(TK-)07/1,HEL,>200 µM
Cc1c(Br)cc(Br)c2ncc(CSCc3ccc(Cl)cc3Cl)n12,plaque count,EC50,OKA (TK+),HEL,9 µg/mL
O=c1[nH]c(=O)n([C@H]2C[C@H](O)[C@@H](CO)O2)cc1/C=C/I,cytopathic effect,EC50,-,HFF,0.04 µM
C[C@H](Cn1nnc2c(N)ncnc21)OCP(=O)(O)O,cytopathic effect,EC50,YS (TK+),HEL,8 µg/mL
Nc1cc([C@H]2C[C@H](O)[C@@H](CO)O2)c(F)cc1F,plaque count,EC50,(TK-)07/1,HEL,>200 µM
Nc1nc2ncn(CCOCP(=O)(O)O)c2c(=O)[nH]1,plaque count,EC50,OKA (TK+),HEL,0.02 µg/mL
OC[C@H]1O[C@@H](c2ccc(F)cc2F)C[C@@H]1O,plaque count,EC50,(TK-)/YS/R,HEL,>200 µM
Cc1c(Br)cc(Br)c2ncc(CSCc3cccc(C(F)(F)F)c3)n12,plaque count,EC50,YS (TK+),HEL,>5 µg/mL
C=Cc1cn([C@H]2C[C@H](O)[C@@H](CO)O2)c(=S)[nH]c1=O,plaque count,EC50,HOSEN (TK+),MRC-5,124.8 µM
Nc1nc2c(ncn2CC[C@@H](O)CO)c(=O)[nH]1,-,EC50,TK-,HEL,>250 µM
O=c1[nH]c(=S)n([C@@H]2O[C@H](CO)[C@@H](O)[C@@H]2O)cc1/C=C/Br,plaque count,EC50,CAQU (TK+),MRC-5,3.8 µM
OC[C@H]1O[C@H](c2cc(Br)c(F)cc2F)C[C@@H]1O,plaque count,EC50,TK+/YS,HEL,149 µM
O=c1[nH]c(=O)n([C@@H]2O[C@H](CO)[C@@H](O)[C@@H]2O)cc1/C=C/Br,cytopathic effect,EC50,Oka PMEDAP-resistant,HEL,0.0001 µM
O=C(NC1CCCCC1)[C@H](Cc1ccccc1)NC(=O)n1nnc2ccccc21,plaque count,EC50,(TK+)/OKA,HEL,>3.2 µg/mL
O=C1O/C(=C\Cn2ccc(=O)[nH]c2=O)C(OCc2ccccc2)=C1O,-,EC50,TK+,HEL,>50 µg/mL
CC(C)C1NC(=O)N(C2CCCC2)C1=O,plaque count,EC50,07/1 (TK-),HEL,90 µg/mL
NC1=NC2C(C=CN2CC(CO)CCO)C(=O)N1,cytopathic effect,EC50,YS/R (TK-),HEL,11.7 µg/mL
O=C(NCc1ccc(Cl)cc1)c1c[nH]c2ccc(CCCO)cc2c1=O,plaque count,EC50,DYE,-,0.1 µM
CCCCCCCCCCc1cc2cn([C@H]3C[C@H](O)[C@@H](CO)O3)c(=O)nc2o1,plaque count,EC50,07/1 (TK-),HEL,>50 µM
OC[C@H]1OC(c2c(-c3ccccc3)cc3c(Cl)cc(C(F)(F)F)cn23)[C@H](O)[C@@H]1O,plaque count,EC50,G-31,MRC-5,>40 µM
Cc1c(Br)cc(Br)c2ncc(CSCc3ccc(Cl)cc3)n12,plaque count,EC50,OKA (TK+),HEL,>2 µg/mL
Nc1nc2c(ncn2CCC(CO)CO)c(=O)[nH]1,cytopathic effect,EC50,Oka penciclovir-resistant/B,HEL,7.9 µM
c1csc(-c2cc3ccccn3c2)c1,plaque count,EC50,G-31,MRC-5,1 µM

Again, the opening 10 rows:

compound,read by,endpoint,strain or isolate,cell line,result
C=Cc1cn([C@@H]2O[C@H](CO)[C@@H](O)[C@@H]2O)c(=S)[nH]c1=O,plaque count,EC50,HOSEN (TK+),MRC-5,>266.3 µM
c1ccn2cc(-c3cncs3)cc2c1,plaque count,EC50,G-31,MRC-5,40–50 µM
Nc1ncnc2c1ncn2[C@H]1C[C@@]12C[C@@H]2CO,plaque count,EC50,-,HFF,>433 µM
Cc1ccccc1CSCc1cnc2c(Br)cc(Br)c(C)n12,plaque count,EC50,YS (TK+),HEL,>5 µg/mL
O=c1[nH]c(=O)n([C@H]2C[C@H](O)[C@@H](CO)O2)cc1/C=C/Br,plaque count,EC50,Batson,HEF,0.0013 µg/mL
Cc1c(Br)cc(Br)c2ncc(CSCc3ccccc3Cl)n12,plaque count,EC50,YS/R (TK-),HEL,>5 µg/mL
COC(=O)C(C)NP(=O)(OC[C@@H]1C/C1=C/n1cc(C)c(=O)[nH]c1=O)Oc1ccccc1,plaque count,EC50,-,HFF,69.3 µM
Cn1cc(C(=O)NCc2ccc(Cl)cc2)c(=O)c2cc(CN3CCOCC3)ccc21,plaque count,EC50,NA varicella isolate,HFF,0.1 µM
Nc1ncc2c(ncn2/C=C2\CC2CO)n1,ELISA,EC50,-,-,>100 µM
CC(C)C[C@H](NC(=O)n1nnc2ccccc21)C(=O)NC(c1ccccc1)c1ccccc1,plaque count,EC50,07/1 (TK-),HEL,>0.64 µg/mL

a–b is a range or a potency band. Blank or dashed fields: not listed here. ECn: concentration that inhibits the pathogen or its effect by n%.